Only a part is listed here, and it is no random draw. Inconclusive results are not listed. Active and inactive are the calls of the source. Calls come from the whole dose curve.
What follows are compounds tested against Polyprotein P1234 (Chikungunya virus (strain S27-African prototype)) (UniProt Q8JUX6) (assay: Primary qHTS for inhibitors of NSP2Pro chikungunya virus (CHIKV)). Conditions: FRET peptide cleavage, fluorescence 1 h; at 24.9 µM (top of the series).
With `O=C(NCC1(N2CCOCC2)CCCCC1)c1ccccc1[N+](=O)[O-]` the activity change, negative = inhibition was inactive: -12.6%. `CC(=O)N1CCc2ccc(N(C(=O)/C=C/c3cccc(C#N)c3)C3CCN(CCC4CCCC4)CC3)cc21` was tested, and the activity change, negative = inhibition was inactive: -7.44%. For `CC(C)(C)c1ccc(C(=O)NCC2(N3CCOCC3)CCCCC2)cc1`, the activity change, negative = inhibition was inactive: 12%. `Cc1ccccc1C(=O)NCC1(N(C)C)CCCCC1` was tested, and the activity change, negative = inhibition was inactive: 50.2%.

Reference: PubChem BioAssay AID1964107 (National Center for Advancing Translational Sciences (NCATS), 2024)
% is set by controls: 0 for no effect and ±100 for the full control effect.
Note: nearly all actives have a fitted effect of over 60% in size.
